Assay results reported in US5773573A (priority 1994, dated 1998).
Some peptides are written in HELM: one residue between dots, names in brackets for other building blocks, links after the first $.

Assay: general procedure: Boc solid-phase peptide synthesis; Boc-aminoacid-OCH2 pam resin; HBTU/DIEA
Conditions: whole synthesis, reverse-phase HPLC or automatic Edman sequencing, scale of the general procedure 0.05 mmole

## PEPTIDE1{T.E.K.K.R.R.E.T.V.E.R.E.K.E}$$$$V2.0
  final HPLC purity: over 99%
